A mixed list of measured activities; the numbers were collected in NIAID ChemDB.

All rows: cytotoxicity tests; cells: ATH8; endpoint: CC50

Lines come from different laboratories, so protocols vary. CCn is the concentration with n% toxicity to the cells.

smiles | result
O=C1C=CC(=C(c2ccc(O)cc2)c2ccc(O)cc2)C=C1 | <10 µg/mL
Cc1cc(CCCCCCCOc2ccc(C3=NCCO3)s2)on1 | 35 µM
Nc1ccn([C@H]2C=C[C@@H](CO)O2)c(=O)n1 | 30 µM
Nc1nc(F)c2ncn([C@H]3CO[C@@H](CO)C3)c2n1 | >100 µM
Nc1nc2c(ncn2[C@H]2C=C[C@@H](CO)C2)c(=O)[nH]1 | 35 µg/mL
Nc1ccn([C@H]2C[C@H](F)[C@@H](CO)S2)c(=O)n1 | >80 µM
Nc1nc2c(ncn2C2CC(CO)C2)c(=O)[nH]1 | ~75 µM
O=c1ccn([C@@H]2S[C@H](CO)C[C@@H]2F)c(=O)[nH]1 | >80 µM
COC(=O)[C@H](C)NP(=O)(OCC=C=Cn1cnc2c(=O)[nH]cnc21)Oc1ccccc1 | ≥10 µM
OC[C@H]1C[C@@H](n2cnc3c(=S)nc[nH]c32)CO1 | >100 µM
Cc1cn([C@H]2C[C@H](N=[N+]=[N-])[C@@H](CO)O2)c(=O)[nH]c1=S | >50 µM
Nc1ccn([C@@H]2O[C@H](CO)C3OC32)c(=O)n1 | >5 µM
CSc1ncnc2c1ncn2[C@H]1CO[C@@H](CO)C1 | >100 µM
Nc1ccn([C@H]2CC[C@@H](CO)O2)c(=O)n1 | >10 µM
Nc1ncnc2c1ncn2[C@H]1CC[C@@H](CO)O1 | >200 µM
CNc1ncnc2c1ncn2[C@H]1CO[C@@H](CO)C1 | >100 µM
Nc1ncnc2c1ncn2[C@@H]1O[C@H](CO)C[C@@H]1F | >200 µM
Nc1ccn([C@@H]2S[C@H](CO)C[C@@H]2F)c(=O)n1 | >80 µM
Nc1nc(=S)c2ncn([C@H]3CO[C@@H](CO)C3)c2[nH]1 | >100 µM

The last 2 rows once more:

smiles	result
Nc1ccn([C@@H]2S[C@H](CO)C[C@@H]2F)c(=O)n1	>80 µM
Nc1nc(=S)c2ncn([C@H]3CO[C@@H](CO)C3)c2[nH]1	>100 µM